A compilation of properties of binary mixtures (doi:10.1021/acs.jpcb.0c03272)

Test: xn = mol fraction of the nth substance listed
Conditions: 100 kPa, x2 = 0.55

O=S(=O)(F)[N-]S(=O)(=O)C(F)(F)F.[K+] + O=S(=O)(F)[N-]S(=O)(=O)F.[K+]
electrical conductivity (343.1 K): 0.12 S/m
viscosity (351.2 K): 778 mPa·s
viscosity (361.9 K): 340 mPa·s
electrical conductivity (364.1 K): 0.41 S/m
electrical conductivity (372 K): 0.67 S/m
viscosity (372.6 K): 198 mPa·s
viscosity (382.1 K): 124.4 mPa·s
electrical conductivity (383.5 K): 1.05 S/m
electrical conductivity (393 K): 1.45 S/m
electrical conductivity (403.7 K): 2.06 S/m
viscosity (412.4 K): 43.4 mPa·s
viscosity (422.5 K): 33.1 mPa·s
electrical conductivity (423.1 K): 3.42 S/m
